A mixed list of measured activities; the numbers were collected in NIAID ChemDB.

Shared fields: growth or infection tests; species: Aspergillus niger; endpoint: zone

Blank or dashed fields: not listed here.

| compound | strain | read by | tested at | value |
|---|---|---|---|---|
| O=C(O)c1ccc(O)c(O)c1 |  | agar diffusion / agar | 10000 µg/mL | 0.22 mm |
| CC(=O)N(c1ccccc1)c1nc(C)cc(C)n1 |  |  | 50 µg/mL | 2.4 mm |
| C(/C=C/c1ccccc1)=NCCNCCN=C/C=C/c1ccccc1.[I][Hg][I] |  | agar diffusion | 20000 µg/mL | 40 mm |
| O=C1NC(=S)NC(=O)C1=Cc1cn(-c2ccccc2)nc1-c1cc2ccc3ccccc3c2oc1=O |  | agar diffusion / agar | 100 µg | 0 mm |
| Cc1cc(CBr)nc(Nc2ccccc2)n1 |  |  | 100 µg/mL | 2 mm |
| O=C1NC(=O)C(=Cc2cn(-c3ccccc3)nc2-c2cc3cc(Br)cc(Br)c3oc2=O)C(=O)N1 |  | agar diffusion / agar | 100 µg | 7 mm |
| CC(C)CCCCCOC(=O)c1ccccc1C(=O)OCCCCCC(C)C |  | agar diffusion / agar | 50000 µg/mL | 0.45 mm |
| Cc1ccc2nc(Cl)c(CNc3ccc([N+](=O)[O-])cc3)cc2c1 | MTCC 281 | agar diffusion | 200 µg/mL | 8.03 mm |
| CC(C)(C)c1ccc(O)c(C(C)(C)C)c1 |  | agar diffusion / agar | 10000 µg/mL | 0.51 mm |
| O=C1NC(=O)C(=Cc2cn(-c3ccccc3)nc2-c2cc3cc(Br)ccc3oc2=O)C(=O)N1 |  | agar diffusion / agar | 100 µg | 14 mm |
| NC(=O)c1ccc(Cc2cn(CCc3ccccc3)c(=O)n(Cc3ccccc3)c2=O)cc1 |  | agar diffusion / agar | 10000 µg/mL | 0.54 mm |
| C(/C=C/c1ccccc1)=NCCNCCN=C/C=C/c1ccccc1.[Cl][Hg][Cl] |  | agar diffusion | 20000 µg/mL | 24 mm |
| Cc1ccc2nc(Cl)c(CNc3ccc(Cl)c(Cl)c3)cc2c1 | MTCC 281 | agar diffusion | 200 µg/mL | 15.86 mm |
| Cc1nc(Nc2ccccc2)nc(C)c1Br |  |  | 100 µg/mL | 2.5 mm |
| Cc1nc(C)c(CC(O)c2ccc(Cl)cc2)nc1C |  | agar diffusion / agar | 50000 µg/mL | 1.43 mm |
| Cc1ccc2nc(Cl)c(CNc3ccccc3)cc2c1 | MTCC 281 | agar diffusion | 200 µg/mL | 9.47 mm |
| O=C(O)c1cc(O)c(O)c(O)c1 |  | agar diffusion / agar | 50000 µg/mL | 0 mm |
| O=C1NC(=S)NC(=O)C1=Cc1cn(-c2ccccc2)nc1-c1cc2cc(Cl)cc(Cl)c2oc1=O |  | agar diffusion / agar | 100 µg | 0 mm |
| Cc1ccc2nc(Cl)c(CNc3ccc(Br)cc3)cc2c1 | MTCC 281 | agar diffusion | 200 µg/mL | 12.16 mm |
| O=C1NC(=S)NC(=O)C1=Cc1cn(-c2ccccc2)nc1-c1cc2cc(Br)cc(Br)c2oc1=O |  | agar diffusion / agar | 100 µg | 0 mm |
| Cc1ccc(NCc2cc3cc(C)ccc3nc2Cl)cc1 | MTCC 281 | agar diffusion | 200 µg/mL | 10.59 mm |

Neighbouring rows are from separate reports. Zones are inhibition diameters on agar.